Anti-infective test results gathered from many reports (values: NIAID ChemDB through PubChem).

All rows: tests on isolated targets

Inhibition is in % at the dose shown (toxicity tests: loss of growth or viability).

SMILES	species	changes	read by	strain	target	read-out	dose	result
O=C(O)c1cc(NS(=O)(=O)c2cc(S(=O)(=O)Nc3cc(C(=O)O)c(O)c(S(=O)(=O)O)c3)cc(S(=O)(=O)Nc3cc(C(=O)O)c(O)c(S(=O)(=O)O)c3)c2)cc(S(=O)(=O)O)c1O	HIV		fluorescence		Protease	IC50		45 µM
O=C(O)CCN1C(=O)/C(=C\c2ccc(-c3cc(Cl)ccc3Cl)o2)SC1=S	HIV-1		scintillation proximity / radiometric		Rev:RRE	IC50		4 µM
O=C(/C=C/c1cccn1Cc1ccc(F)cc1)CC(=O)C(=O)O	HIV-1	Y501A	substrate cleavage / fluorescence		RNase H	IC50		11.6 µM
CCN1c2ncc(CCOc3ccc4cc(CC(=O)O)ccc4c3)cc2C(=O)N(C)c2cccnc21	HIV-1	RT-Y188L	nucleotide incorporation / radiometric		Reverse transcriptase	IC50		>1 µM
Cc1nnc(C(=O)N(C)C2COCCn3c2nc(C(=O)NCc2ccc(F)cc2)c(O)c3=O)o1	HIV-1		ELISA		Integrase	IC50		<10 µM
COC(=O)c1ccc(C(=O)NCc2ccccn2)c(O)c1O	HIV		strand transfer		Integrase	IC50		<0.5 µM
CC(=O)N1CCn2c(nc(C(=O)NCc3ccc(F)cc3)c(O)c2=O)C(N(C)Cc2ccccc2)C1	HIV-1		ELISA		Integrase	IC50		<10 µM
CC(C)=CCN1Cc2cccc3[nH]c(=S)n(c23)C[C@@H]1C	HIV		nucleotide incorporation		Reverse transcriptase	Ki		0.32 µM
CCN1c2ncc(CCOc3ccc(CC(=O)NN)c4ccccc34)cc2C(=O)N(C)c2cccnc21	HIV-1		nucleotide incorporation / radiometric	WT	Reverse transcriptase	IC50		<0.1 µM
O=C(/C=C/c1ccc(/C=C/C(=O)Nc2ccc(C3=NCCN3)cc2)cc1)Nc1ccc(C2=NCCN2)cc1	HIV-1		scintillation proximity / radiometric		Rev:RRE	IC50		1.2 µM
Cc1ccc(Cn2cccc2/C=C/C(=O)CC(=O)C(=O)O)c(C)c1	HIV-1	N474A	substrate cleavage / fluorescence		RNase H	inhibition	100 µM	16%
CCN1c2ncc(CCOc3ccc(C(=O)O)c4c3CCN(S(C)(=O)=O)C4)cc2C(=O)N(C)c2cccnc21	HIV-1	RT-Y188L	nucleotide incorporation / radiometric		Reverse transcriptase	fold resistance		1–10
NCCCC[C@@H]1NC(=O)[C@H](CCCN=C(N)N)NC(=O)[C@H](Cc2ccccc2)NC(=O)[C@H](CCCN=C(N)N)NC(=O)[C@@H](CCCN=C(N)N)NC1=O	HIV-1		FRET		Tat:TAR/LTR	Ki		8.28 µM
COc1ccc2c(c1)CCN(c1nn3c(C4CC4)nnc3c3ccccc13)C2	HIV-1		RT activity / fluorescence	IIIB	Reverse transcriptase	IC90		3.83 µM
CCOC(=O)C(=O)CC(=O)/C=C/c1cccn1Cc1ccc(C)cc1C	HIV-1	Q475A	substrate cleavage / fluorescence		RNase H	inhibition	100 µM	24%
COc1ccc(OC)c(C/C=C(\C)CC/C=C(\C)CC/C=C(\C)CC/C=C(\C)CC/C=C(\C)CCC=C(C)C)c1	HIV-2		nucleotide incorporation		Reverse transcriptase	IC90		12.8 µM
O=S(=O)(O)c1ccc2c(OS(=O)(=O)c3cccc4c(S(=O)(=O)O)cccc34)cc(S(=O)(=O)O)cc2c1	HIV		fluorescence		Protease	inhibition	137 µM	37%
Cc1ccc(Cl)cc1Nc1nc(C(F)(F)F)ccc1C(=O)NN1CCN(c2cccc(Cl)c2)CC1	HIV-1	Y181C	RNase H / absorbance		RNase H	IC50		55.4 µM
O=C(Nc1ccc(-c2nc3ccc(NC(=O)c4ccc(Cl)cc4)cc3[nH]2)cc1)c1ccc(Cl)cc1	HIV-1		scintillation proximity / radiometric		Rev:RRE	IC50		2.2 µM
O=C(NCc1ccccc1)c1ccccc1O	HIV		strand transfer		Integrase	IC50		<0.5 µM
CN(C)C(=O)C(=O)N(C)C1CN(C2CC2)CCn2c1nc(C(=O)NCc1ccc(F)c(Cl)c1)c(O)c2=O	HIV-1		ELISA		Integrase	IC50		<10 µM
CCCC[C@@H](CN[C@@H](CCC(N)=O)C(=O)N[C@@H](CCCN=C(N)N)C(N)=O)NC(=O)[C@H](CCCC)NC(=O)C(NC(=O)C(NC(C)=O)[C@@H](C)O)[C@@H](C)CC	HIV	PR-L90M	HPLC		Protease	IC50		<2.17 µM
CC[C@H](C)[C@H](NC(=O)C[C@H](O)[C@H](CC(C)C)NC(=O)[C@H](CC(N)=O)NC(=O)[C@H](CCC(N)=O)NC(=O)[C@H](CO)NC(=O)[C@@H](N)C(C)C)C(=O)N[C@H](C(=O)O)C(C)C	HIV-2				Protease	Ki		9 µM
CCCCCCCCCC1N=C(N)N2CCCC2=C1C(=O)OCCCCN=C(N)N	HIV-1				gp120	IC50		>100 µM
CC1(C)c2nc(C(=O)NCc3ccc(F)cc3)c(O)c(=O)n2CCN1CC(=O)N1CCCC1	HIV-1		ELISA		Integrase	IC50		<10 µM
NCCCC[C@@H]1NC(=O)[C@H](CCCN=C(N)N)NC(=O)[C@H](Cc2ccccc2)NC(=O)[C@H](CCCN=C(N)N)NC(=O)[C@H](CCCN=C(N)N)NC1=O	HIV-1		FRET		Tat:TAR/LTR	Ki		1.87 µM
O=C(OC[C@H]1O[C@@H](O)[C@@H]2OC(=O)c3cc(O)c(O)c(O)c3-c3c(cc(O)c(O)c3O)C(=O)O[C@H]2[C@@H]1OC(=O)c1cc(O)c(O)c(O)c1Oc1cc2c(c(O)c1O)-c1c(cc(O)c(O)c1O)C(=O)O[C@@H]1[C@@H](OC2=O)[C@H](OC(=O)c2cc(O)c(O)c(O)c2)O[C@@H]2COC(=O)c3cc(O)c(O)c(O)c3-c3c(cc(O)c(O)c3O)C(=O)O[C@@H]12)c1cc(O)c(OC(=O)c2cc(O)c(O)c(O)c2)c(O)c1	HIV-1		binding		gp120	inhibition	6.25 µg/mL	88.5%
COC(=O)[C@H](CC(C)C)N1C[C@@H]2O[C@H](C1=O)[C@H](C(=O)N1CCN(CCc3ccccc3)CC1)O2	HIV-1		FRET		Protease	inhibition	10 µM	0%
O=[N+]([O-])c1ccc2c(c1)CN(c1nn3c(C(F)F)nnc3c3ccccc13)CC2	HIV-1		RT activity / fluorescence	98US_MSC5016	Reverse transcriptase	IC90		20.3 µM
O=C(CCCCCCCCCCC(=O)Nc1ccc(S(=O)(=O)O)c2cccc(S(=O)(=O)O)c12)Nc1ccc(S(=O)(=O)O)c2cccc(S(=O)(=O)O)c12	HIV		fluorescence		Protease	IC50		18 µM
CCN1c2ncc(CCOc3ccc(C(=O)O)c4c3CCCC4)cc2C(=O)N(C)c2ccc(OC)nc21	HIV-1	RT-V106A	nucleotide incorporation / radiometric		Reverse transcriptase	fold resistance		>10
O=C1N/C(=N\N=C\c2ccc(Cl)c([N+](=O)[O-])c2)S/C1=C/c1ccc(-c2ccc(Cl)c(C(=O)O)c2)o1	HIV-1		scintillation proximity / radiometric		Rev:RRE	IC50		1.1 µM
Oc1ccc2c(c1)CN(c1nn3c(C4CC4)nnc3c3ccccc13)CC2	HIV-1		RT activity / fluorescence	KER2008	Reverse transcriptase	IC90		2.22 µM
CN1CCn2c(nc(C(=O)NCc3ccc(F)cc3)c(O)c2=O)C(NCc2ccccc2)C1	HIV-1		ELISA		Integrase	IC50		<10 µM
O=C(O)CCN1C(=O)/C(=C\c2ccc(-c3ccccc3)o2)SC1=S	HIV-1		scintillation proximity / radiometric		Rev:RRE	IC50		40 µM
CCCCCCCCC[C@H]1O[C@@H]1C(=O)O	HIV-2		HPLC		Protease	inhibition	500 µg/mL	88%
NCCCC[C@@H]1NC(=O)[C@H](CCCN=C(N)N)NC(=O)[C@@H](Cc2ccccc2)NC(=O)[C@H](CCCN=C(N)N)NC(=O)[C@H](CCCN=C(N)N)NC1=O	HIV-1		FRET		Tat:TAR/LTR	Ki		12.73 µM
O=C(O)[C@@H]1CC[C@H](NS(=O)(=O)c2ccc(N3CCC(CCCC4CCN(S(=O)(=O)c5ccc(F)cc5)CC4)CC3)c(Cl)c2)C1	HIV-1		fluorescence		gp120 + CD4	IC50		>10 µM
Cc1nnc2c3ccccc3c(N3CCc4c(F)cccc4C3)nn12	HIV-1		RT activity / fluorescence	IIIB	Reverse transcriptase	IC90		12 µM
CCN1c2ncc(CCOc3ccc(/C=C(\C)C(=O)O)c4ccccc34)cc2C(=O)N(C)c2ccc(F)nc21	HIV-1	RT-V106A	nucleotide incorporation / radiometric		Reverse transcriptase	fold resistance		>10
O=CC(O)C(OC(=O)c1cc(O)c(O)c(O)c1)C1OC(=O)c2cc(O)c(O)c(O)c2-c2c(cc(O)c(O)c2O)C(=O)OCC1O	HIV-1		antigen		Capsid	IC50		6 µg/mL
CNC(=O)[C@@H](Cc1ccccc1)NP(=O)(O)OC[C@H]1O[C@@H](n2cc(C)c(=O)[nH]c2=O)C[C@@H]1N=[N+]=[N-]	HIV-1		fluorescence		Rev:RRE	IC50		0.35 µM
CC(=O)N(CC1CCCCC1)C1CN(C)CCn2c1nc(C(=O)NCc1ccc(F)cc1)c(O)c2=O	HIV-1		ELISA		Integrase	IC50		<10 µM
COc1cccc(Cn2cccc2/C=C/C(=O)CC(=O)C(=O)O)c1	HIV-1	Y501A	substrate cleavage / fluorescence		RNase H	IC50		6.4 µM
CCCCNC(=O)[C@H](CC(C)C)N1C[C@@H]2O[C@H](C1=O)[C@H](C(=O)N1CCCCC1)O2	HIV-1		FRET		Protease	inhibition	10 µM	0%
O=C(NO)[C@H]1CC[C@H](NS(=O)(=O)c2ccc(N3CCC(CCCC4CCN(S(=O)(=O)c5cc(Br)c(Cl)s5)CC4)CC3)c(Cl)c2)C1	HIV-1		fluorescence		gp120 + CD4	IC50		>10 µM
CCN1c2ncc(CCOc3ccc(/C=C/C(=O)O)c4ccccc34)cc2C(=O)Nc2c(C)ccnc21	HIV-1	RT-V106A	nucleotide incorporation / radiometric		Reverse transcriptase	fold resistance		1–10
COC(=O)c1ccc2c(c1)CN(c1nn3c(C)nnc3c3ccccc13)CC2	HIV-1		RT activity / fluorescence	98US_MSC5016	Reverse transcriptase	IC90		1.17 µM
Nc1nc2c(ncn2[C@H]2CO[C@@H](COP(=O)(O)OP(=O)(O)OP(=O)(O)O)O2)c(=O)[nH]1	HIV	RT-Q151M	radiometric		Reverse transcriptase	Ki		0.093 µM
CC[C@H](C)[C@H](NC(=O)[C@@H]1CCCN1C(=O)[C@H](Cc1ccc(O)cc1)NC(=O)[C@@H](NC(=O)[C@H](CCC(N)=O)NC(=O)[C@@H](N)CO)C1CCCO1)C(=O)N[C@H](C(=O)O)C(C)C	HIV				Protease	inhibition	0.05 µM	82%
COc1cc2c(cc1OC)CN(c1nn3c(C)nnc3c3ccccc13)CC2	HIV-1		RT activity / fluorescence	KER2008	Reverse transcriptase	IC90		0.85 µM
CC1(C)c2nc(C(=O)NCc3ccc(F)cc3)c(O)c(=O)n2CCN1Cc1cscn1	HIV-1		ELISA		Integrase	IC50		<10 µM
CC(=O)c1ccc(C(=O)Nc2ccc(-c3nc4ccc(NC(=O)c5ccc(C(C)=O)cc5)cc4[nH]3)cc2)cc1	HIV-1		scintillation proximity / radiometric		Rev:RRE	IC50		6.7 µM
CCCCNC(=O)[C@@H]1O[C@]2(c3ccccc3)CN(C(c3ccccc3)c3ccccc3)C(=O)[C@H]1O2	HIV-1		FRET		Protease	inhibition	1 µM	0%
COC(=O)c1ccc(C(=O)NCc2ccccc2C(F)(F)F)c(O)c1O	HIV		strand transfer		Integrase	IC50		<0.5 µM
CCCCCCC[C@H]1CC2CCC3=C(C(=O)OCCCCN=C(N)N)C(CCCCC)N=C(N1)N32	HIV-1		ELISA		gp120	IC50		>100 µM
CC[C@H](C)[C@H](NC(=O)[C@@H](NCC(O)[C@H](CC(C)C)NC(=O)[C@H](Cc1cnc[nH]1)N(C)C(=O)[C@H](Cc1ccccc1)NC(=O)[C@@H]1CCCN1C(=O)OC(C)(C)C)C(C)C)C(=O)NCc1ccccn1	HIV-2				Protease	Ki		>1 µM
Nc1ccc(C(=O)Nc2ccc(-c3nc4ccc(NC(=O)c5ccc(N)cc5)cc4[nH]3)cc2)cc1	HIV-1		scintillation proximity / radiometric		Rev:RRE	IC50		7.7 µM
COc1ccc2c(c1)CN(c1nn3c(-c4cccs4)nnc3c3ccccc13)CC2	HIV-1		RT activity / fluorescence	98US_MSC5016	Reverse transcriptase	IC90		>100 µM
O=CC1OC(=O)c2cc(O)c(O)c(O)c2Oc2cc3c(c(O)c2O)-c2c(cc(O)c(O)c2O)C(=O)OCC2OC(OC(=O)c4cc(O)c(O)c(O)c4Oc4cc5c(c(O)c4O)-c4c(cc(O)c(O)c4O)C(=O)OC(C(O)COC5=O)C1OC(=O)c1cc(O)c(O)c(O)c1)C(OC(=O)c1cc(O)c(O)c(O)c1)C(OC(=O)c1cc(O)c(O)c(O)c1)C2OC3=O	HIV-1		binding		gp120	inhibition	0.78 µg/mL	43%
c1csc(-c2nnc3c4ccccc4c(N4CCc5ccccc5C4)nn23)c1	HIV-1		RT activity / fluorescence	98US_MSC5016	Reverse transcriptase	IC90		>100 µM
O=C1[C@H]2O[C@@H](CN1Cc1ccccc1)O[C@H]2C(=O)N1CCC[C@H]1CO	HIV-1		FRET		Protease	inhibition	10 µM	0%
CCCCCCCCC[C@@H]1O[C@@H]1C(N)=O	HIV-2		HPLC		Protease	inhibition	500 µg/mL	0%
CN1CCn2c(nc(C(=O)NCc3ccc(F)cc3)c(O)c2=O)C(N(CC2CCCCC2)C(=O)C(=O)N(C)C)C1	HIV-1		ELISA		Integrase	IC50		<10 µM

Two numbers with a dash give a range or band. Fold resistance has wild type as its base. ICn is the concentration giving n% inhibition. Neighbouring rows are from separate reports. Blank or dashed fields: not listed here.